Laboratory results taken from article PMC7553346.
“And” between values parts separate entries of the source, which are not always exact repeats. Equal values may be shown once.

Target: amyloid-β 40 (Aβ40)
Assay: cross-linking; PICUP (Ru(Bpy), APS, light 3 x 1 s) of Aβ40 (50 μM) incubated in bicine (20 mM) or PBS (1X) at 37°C for 2, 4 and 7 days; SDS-PAGE (10–20% tris-tricine), silver staining

Substance: amyloid-β 40 (Aβ40) (peptide; other documents disagree on this pair)
- stoichiometry N: 2 and 3
